Results deposited as PubChem BioAssay AID1259414 (Drosophila RNAi Screening Center, 2018)
In all, the deposit lists about 24,000 reagents; shown is an unselected part of those that have a named target and a result. Of all reagents, about 1,210 (5%) were called active. 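Inactive calls also include excluded dsRNAs with several or no targets, genes unexpressed in JW18, and well A1, regardless of score.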 The numbers tell different reagents against one gene apart. A plus sign joins genes that one reagent is predicted to hit.

- Aim: 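Fly genes that alter Wolbachia amount inside host cells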 (primary screen)
- Cells: Drosophila JW18 cells infected with Wolbachia
- Knock-down reagent: long dsRNA against Drosophila genes, 0.25 µg dsRNA per well of a 384-well plate
- Time to read-out: 5 days
- Treatment: cells persistently infected with Wolbachia before knock-down; no added drug
- Read-out: 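Imaged fluorescence in situ signal for Wolbachia 23S rRNA per DAPI-counted host cell, given as a robust z-score within each plate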
- Reading the numbers: Wolbachia per cell robust z: higher = more Wolbachia per host cell than the plate typical
- Call rule: 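Hit when robust z is 1.5 or more, or -1.5 or less, in at least two of three replicates; excludes dsRNAs with several or no targets, genes not expressed in JW18 and well A1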

| gene knocked down | dsRNA no. | Wolbachia per cell robust z, rep 1 | Wolbachia per cell robust z, rep 2 | Wolbachia per cell robust z, rep 3 | outcome |
| --- | --- | --- | --- | --- | --- |
| Ugt303B1 (UDP-glycosyltransferase family 303 member B1) | 1 | 0.327 | -2.42 | 0.738 | inactive |
| CG9003 | 1 | -0.0238 | -2.31 | -1.65 | active |
| CG1092 | 1 | 0.141 | -1.88 | -0.0694 | inactive |
| CG1092 | 2 | -0.683 | -1.85 | 0.036 | inactive |
| CG5087 | 1 | 0.19 | 0.255 | -8.62 | inactive |
| CG13875 | 1 | -1.75 | -0.17 | -0.0626 | inactive |
| cold (coiled) | 1 | 1.28 | -0.409 | 0.448 | inactive |
| Nup75 (Nucleoporin 75kD) | 1 | 0.554 | 1.37 | 1.37 | inactive |
| Nup75 (Nucleoporin 75kD) | 2 | 0.805 | 0.673 | 1.89 | inactive |
| VhaM9.7-c (Vacuolar H[+] ATPase M9.7 subunit c) | 1 | -0.0972 | 1.16 | 0.195 | inactive |
| VhaM9.7-c (Vacuolar H[+] ATPase M9.7 subunit c) | 2 | 0.61 | -0.736 | 0.363 | inactive |
| Cpr50Cb (Cuticular protein 50Cb) | 1 | -3.01 | 1.01 | 0.0363 | inactive |
| Cpr50Cb (Cuticular protein 50Cb) | 2 | -0.514 | -0.587 | -0.934 | inactive |
| CG8372 | 1 | 0.414 | -0.343 | -0.777 | inactive |
| Rcd7 (Reduction in Cnn dots 7) | 1 | -0.583 | -0.291 | -0.516 | inactive |
| otp + asRNA:CR43160 | 1 | -1.33 | -1.6 | 0.68 | inactive |
| CG4953 | 1 | -0.763 | -0.622 | 0.333 | inactive |
| FANCI (Fanconi anemia complementation group I) | 1 | -1.77 | -4.73 | -0.688 | active |
| AnxB11 (Annexin B11) | 1 | 0.185 | -0.579 | -1.67 | inactive |
| AnxB11 (Annexin B11) | 2 | -0.897 | 0.02 | 0.465 | inactive |
| sno (strawberry notch) | 1 | 1.22 | -4.61 | 0.897 | inactive |
| Cpr67Fa1 (Cuticular protein 67Fa1) | 1 | -0.143 | -0.379 | -0.657 | inactive |
| CG10185 | 1 | -0.472 | -0.523 | -0.168 | inactive |
| CG42635 + CG42634 | 1 | 1.82 | 1.06 | 0.913 | inactive |
| CG33181 | 1 | -0.106 | 0.277 | -0.518 | inactive |
| CG33181 | 2 | -0.739 | 1.12 | 0.851 | inactive |
| CG33181 | 3 | 0.707 | 0.0327 | 1.04 | inactive |
| RpLP2 (Ribosomal protein LP2) | 1 | 1.81 | 1.76 | 1.2 | active |
| RpLP2 (Ribosomal protein LP2) | 2 | -1.12 | 1.24 | 0.379 | inactive |
| CG15369 | 1 | -0.122 | 0.388 | -0.682 | inactive |
| CG30323 | 1 | 0.445 | 0.808 | -2.4 | inactive |
| drk (downstream of receptor kinase) | 1 | 0.017 | 0.304 | 1.6 | inactive |
| drk (downstream of receptor kinase) | 2 | 1.48 | 3.14 | 3.55 | active |
| CG18476 | 1 | -3.24 | -0.433 | -0.679 | inactive |
| krz (kurtz) | 1 | 0.138 | 0.323 | -2.08 | inactive |
| ds (dachsous) | 1 | -0.887 | 0.64 | 1.45 | inactive |
| CG9701 | 1 | -2.02 | -1.65 | -1.92 | inactive |
| CG9701 | 2 | 0.988 | -0.553 | 0.508 | inactive |
| eIF4EHP | 1 | 0.28 | -0.00453 | 0.307 | inactive |
| eIF4EHP | 2 | -1.91 | -0.787 | -0.0351 | inactive |
| Sec6 (Secretory 6) | 1 | 2.28 | 1 | 1.37 | inactive |
| Kaz-m1 (Kazal-type protease inhibitor m1) | 1 | 0.378 | 0.523 | -0.382 | inactive |
| baf (barrier to autointegration factor) | 1 | 1.56 | -0.12 | 0.374 | inactive |
| baf (barrier to autointegration factor) | 2 | 0.328 | -0.83 | 0.673 | inactive |
| Doc3 (Dorsocross3) | 1 | -0.0958 | -0.776 | 0.409 | inactive |
| Doc3 (Dorsocross3) | 2 | 0.865 | 0.413 | -0.00697 | inactive |
| jvl (javelin-like) | 1 | 0.984 | 2.31 | 2.93 | active |
| jvl (javelin-like) | 2 | -0.595 | 0.284 | -4.77 | inactive |
| jvl (javelin-like) | 3 | 0.771 | 1.17 | 1.81 | inactive |
| jvl (javelin-like) | 4 | 0.75 | -2.05 | 1.1 | inactive |
| Sugb (Sugar baby) | 1 | -0.915 | -8.76 | 0.665 | inactive |
| GXIVsPLA2 | 1 | 0.691 | 1.27 | 1.14 | inactive |
| GXIVsPLA2 | 2 | 0.262 | -1.81 | -0.565 | inactive |
| l(1)G0320 (lethal (1) G0320) | 1 | 0.145 | -3.46 | -0.953 | inactive |
| CG31882 | 1 | 0.728 | 0.0739 | 1.1 | inactive |
| CG7763 | 1 | -1.19 | -4.82 | -0.124 | inactive |
| kek1 (kekkon 1) | 1 | 0.437 | 0.382 | 0.277 | inactive |
| kek1 (kekkon 1) | 2 | -0.655 | -0.0297 | -2.7 | inactive |
| Rok (Rho kinase) | 1 | 0.669 | 1.01 | 0.333 | inactive |
| Rok (Rho kinase) | 2 | -1.15 | -1.49 | -0.865 | inactive |
| CG9396 | 1 | -0.0915 | -1.79 | -0.739 | inactive |
| CG9396 | 2 | 0.13 | -0.127 | 0.316 | inactive |
| CG34219 | 1 | 0.841 | 1.72 | 2.21 | inactive |
| rtet (tetracycline resistance) | 1 | -0.922 | -0.807 | -7.92 | inactive |
| Skp2 + CG14645 | 1 | 0.585 | 0.00534 | 0.146 | inactive |
| heix (heixuedian) | 1 | -0.0539 | -0.2 | 0.621 | inactive |
| CG31098 | 1 | 0.109 | -2.1 | -4.12 | active |
| Mbs (Myosin binding subunit) | 1 | -3.14 | 0.837 | -2.03 | active |
| Mbs (Myosin binding subunit) | 2 | 0.132 | -0.105 | -1.21 | inactive |
| Mbs (Myosin binding subunit) | 3 | 0.137 | 0.637 | 0.306 | inactive |
| Mbs (Myosin binding subunit) | 4 | -1.04 | -1.06 | -0.695 | inactive |
| Mbs (Myosin binding subunit) | 5 | 0.721 | 1.31 | 0.436 | inactive |

Laid out differently: results already given
{"gene knocked down": "eIF4EHP", "dsRNA no.": 2, "Wolbachia per cell robust z, rep 1": -1.91, "Wolbachia per cell robust z, rep 2": -0.787, "Wolbachia per cell robust z, rep 3": -0.0351, "outcome": "inactive"}
{"gene knocked down": "Sec6 (Secretory 6)", "dsRNA no.": 1, "Wolbachia per cell robust z, rep 1": 2.28, "Wolbachia per cell robust z, rep 2": 1, "Wolbachia per cell robust z, rep 3": 1.37, "outcome": "inactive"}
{"gene knocked down": "Kaz-m1 (Kazal-type protease inhibitor m1)", "dsRNA no.": 1, "Wolbachia per cell robust z, rep 1": 0.378, "Wolbachia per cell robust z, rep 2": 0.523, "Wolbachia per cell robust z, rep 3": -0.382, "outcome": "inactive"}
{"gene knocked down": "baf (barrier to autointegration factor)", "dsRNA no.": 1, "Wolbachia per cell robust z, rep 1": 1.56, "Wolbachia per cell robust z, rep 2": -0.12, "Wolbachia per cell robust z, rep 3": 0.374, "outcome": "inactive"}
{"gene knocked down": "baf (barrier to autointegration factor)", "dsRNA no.": 2, "Wolbachia per cell robust z, rep 1": 0.328, "Wolbachia per cell robust z, rep 2": -0.83, "Wolbachia per cell robust z, rep 3": 0.673, "outcome": "inactive"}
{"gene knocked down": "Doc3 (Dorsocross3)", "dsRNA no.": 1, "Wolbachia per cell robust z, rep 1": -0.0958, "Wolbachia per cell robust z, rep 2": -0.776, "Wolbachia per cell robust z, rep 3": 0.409, "outcome": "inactive"}
{"gene knocked down": "Doc3 (Dorsocross3)", "dsRNA no.": 2, "Wolbachia per cell robust z, rep 1": 0.865, "Wolbachia per cell robust z, rep 2": 0.413, "Wolbachia per cell robust z, rep 3": -0.00697, "outcome": "inactive"}
